A mixed list of measured activities; the numbers were collected in NIAID ChemDB.

Common to all: tests in culture; agent: Rhinovirus; method: cytopathic effect; endpoint: EC50

ECn: concentration that inhibits the pathogen or its effect by n%.

smiles,strain or isolate,cells,value
Cc1ccc(C(=O)CCCCOc2ccc(C3=NC(C)(C)CO3)cc2)s1,TYPE 2,HeLa,10.8 µM
Cc1c(-c2ccccc2)n(-c2cccc(F)c2)c2ccc(C(C)C)cc2c1=O,TYPE 2/ HGP,HELA-OHIO,0.03 µg/mL
CCOC(=O)c1ccc(OCCCCC(=O)c2ccc(OC)cc2)cc1,Serotype 14,HeLa,2.2 µM
CSc1nsc(-c2ccc(OCCCOc3ccc(C#N)cc3)cc2)c1C#N,Serotype 42 (group A),HELA-OHIO,>2 µM
COc1ccc(C(=O)CCCCOc2ccc(C3=NCCO3)cc2)cc1,Serotype 14,HeLa,0.4 µM
Cc1cc(OCCCc2ccc(=O)[nH]n2)cc(C)c1-c1noc(C(F)F)n1,serotypes 3 4 5 9 16 18 38 66 75 67,HeLa,0.05 µg/mL
CCC1COC(c2ccc(OCCCCC(=O)c3ccc(C)s3)cc2)=N1,TYPE 2,HeLa,2.15 µM
Clc1ccc2c(c1)CC(c1ccccc1)CO2,Serotype 1B,M-HELA,0.82 µM
Brc1cnc2c(c1)C=CC(c1ccccc1)O2,TYPE 64,HeLa,>3.47 µM
COC(=O)c1cc(CCCOc2c(C)cc(-c3noc(C)n3)cc2C)on1,Serotype 2,HeLa,0.003 µg/mL
CCOC(=O)c1ccc(OCCOc2ccc(-c3snc(SC)c3C#N)cc2)cc1,Serotype 51 (group B),HELA-OHIO,>2 µM
CCOC(=O)c1ccc(OCCC2CCN(c3ccc(C)nn3)CC2)cc1,Serotype 34,WI-38,<0.1 µg/mL
Cc1cc(OCCCc2ccc(CO)nn2)cc(C)c1-c1noc(C(F)(F)F)n1,serotypes 3 4 5 9 16 18 38 66 75 67,HeLa,0.07 µg/mL
N#Cc1ccc(Oc2ccc(F)cc2)nc1,TYPE 1A,HeLa,34 µM
N#Cc1cc([N+](=O)[O-])ccc1Oc1ccc(Cl)c(Cl)c1,TYPE 2,HeLa,0.1 µg/mL
Clc1ccc(C2COc3ccc(Cl)cc3C2)cc1,Serotype 1B,M-HELA,0.36 µM
O=C(CCCCOc1ccc(C2=NCCO2)cc1)c1ccccc1,Serotype 14,HeLa,41.1 µM
Cc1nc(-c2cc(C)c(OCCCc3cc(C4CC4)no3)c(C)c2)no1,Serotype 2,HeLa,0.009 µg/mL
O=C(CCCCOc1ccc(C2=NCCO2)cc1)c1ccc(F)cc1,Serotype 14,HeLa,13.2 µM
Clc1ccc2c(c1)C=C(c1ccc(Br)cc1)CO2,Serotype 1B,M-HELA,2.49 µM
Cc1cnnc(CCCOc2cc(C)c(-c3noc(C)n3)c(C)c2)c1,serotypes 3 4 5 9 16 18 38 66 75 67,HeLa,0.58 µg/mL
COCc1cc(CCCOc2c(Cl)cc(-c3noc(C)n3)cc2Cl)on1,Serotype 6,HeLa,0.073 µg/mL
Cc1ccc(C(=O)CCCCOc2ccc(C3=N[C@@H](C)CO3)cc2)s1,TYPE 14,HeLa,0.28 µM
CSc1nsc(-c2ccc(OCCc3ccccc3)cc2)c1C#N,Serotype 86 (group A),HELA-OHIO,2 µM
CCOC(=O)c1ccc(OCCCCC(=O)c2ccccc2)cc1,Serotype 14,HeLa,11 µM
CSc1nsc(-c2ccc(OCCCCOc3ccccc3)cc2)c1C#N,Serotype 70 (group A),HELA-OHIO,1 µM
CS(=O)(=O)c1ccc(Oc2ccc(Cl)c(Cl)c2)nc1,TYPE 1A,,0.94 µM
Cc1cc(OCCCc2ccc(C(F)(F)F)nn2)cc(C)c1-c1noc(C(F)F)n1,serotypes 3 4 5 9 16 18 38 66 75 67,HeLa,0.03 µg/mL
CSc1nsc(-c2ccc(OCCCOc3ccc([N+](=O)[O-])cc3)cc2)c1C#N,Serotype 45 (group A),HELA-OHIO,>1 µM
CS(=O)(=O)c1ccc(Oc2ccc(C(=O)c3ccccc3)cc2)nc1,TYPE 89,HeLa,5 µg/mL
CC(=O)c1ccc(Oc2ccc(C#N)cn2)cc1,TYPE 2,HeLa,210 µM
Cc1ccc(C(=O)CCCCCCOc2ccc(C3=NC(C)CO3)cc2)s1,TYPE 14,HeLa,0.26 µM
Cc1ccc(C(=O)CCCCOc2ccc(C3=NCCO3)cc2)cc1Cl,Serotype 2,HeLa,>269 µM
Clc1ccc(C2=Cc3ccccc3OC2)cc1,Serotype 1B,M-HELA,1.65 µM
N#Cc1ccc(OCCCCC(=O)c2ccc(F)cc2)cc1,Serotype 14,HeLa,>35 µM
Cc1c(-c2ccccc2)n(-c2ccc(F)cc2)c2ccc(C(C)C)cc2c1=O,50/A2#58,HELA-OHIO,0.038 µg/mL
Cc1cc(CCCCCOc2c(Cl)cc(C3=NCCO3)cc2Cl)on1,Serotype 2,HeLa,0.03 µM
CSc1nsc(-c2ccc(OCCOc3ccc([N+](=O)[O-])cc3)cc2)c1C#N,Serotype 2 (group B),HELA-OHIO,>2 µM
Cc1ccc(C(=O)CCCCOc2ccc(C3=N[C@H](C)CO3)cc2)s1,TYPE 14,HeLa,1.96 µM
CCOC(=O)c1ccc(OCCCCC(=O)c2ccc(SC)cc2)cc1,Serotype 14,HeLa,1.7 µM
Cc1ccc(C(=O)CCCCOc2ccc(C3=NCC(C)O3)cc2Cl)s1,TYPE 14,HeLa,4.9 µM
CCN(CC)c1cc(-c2ccc(OC)cc2OC)on1,Serotype 15 (group B),HeLa,2.2 µM
CS(=O)(=O)c1cnc2c(c1)CCC(c1ccccc1)O2,TYPE 1A,HeLa,>17 µM
Cc1ccc(C(=O)CCCCCCOc2ccc(C3=NCCO3)cc2)s1,TYPE 2,HeLa,10.8 µM

5 of the rows above, restated:

smiles | strain or isolate | cells | value
Cc1cc(OCCCc2ccc(=O)[nH]n2)cc(C)c1-c1noc(C(F)F)n1 | serotypes 3 4 5 9 16 18 38 66 75 67 | HeLa | 0.05 µg/mL
O=C(CCCCOc1ccc(C2=NCCO2)cc1)c1ccccc1 | Serotype 14 | HeLa | 41.1 µM
Cc1c(-c2ccccc2)n(-c2cccc(F)c2)c2ccc(C(C)C)cc2c1=O | TYPE 2/ HGP | HELA-OHIO | 0.03 µg/mL
CSc1nsc(-c2ccc(OCCc3ccccc3)cc2)c1C#N | Serotype 86 (group A) | HELA-OHIO | 2 µM
CCN(CC)c1cc(-c2ccc(OC)cc2OC)on1 | Serotype 15 (group B) | HeLa | 2.2 µM

An empty or dashed field is not shown. Lines come from different laboratories, so protocols vary.